Measurements reported in ChEMBL document CHEMBL5241077 (Eur J Med Chem, 2021).

System: Yellow fever virus
Assay: Antiviral activity against YFV harboring firefly luciferase gene at IRES site infected hamster BHK cells assessed as inhibition of viral replication incubated for 36 hrs by firefly luciferase based bioluminescence assay

Question: `C/C(=N\NC(=N)N)c1ccc(NC(=O)Nc2ccc(/C(C)=N/NC(=N)N)cc2)cc1` was tested. Which IC50 did it give?
Answer: The IC50 was 13 µM.
